Data on 14 compounds can be found in patent US10689340B2, “Substituted indoline derivatives as dengue viral replication inhibitors” (priority 2016, dated 2020).

For data set [1], the system named is DENV-3 strain H87. Kind of data set: Tetravalent RT-qPCR assay, serotype 3. Type of data set: cell-based, Dengue virus. The conditions noted are these: RT-qPCR serotype 3, Protocol A. The procedure:
(§1) The antiviral activity of the compounds of the invention was tested against DENV-1 strain TC974#666 (NCPV), DENV-2 strain 16681, DENV-3 strain H87 (NCPV) and DENV-4 strain H241 (NCPV) in a RT-qPCR assay. Therefore, Vero cells were infected with either DENV-1, or -2, or -3, or -4 in the presence or absence of test compounds. At day 3 post-infection, the cells were lysed and cell lysates were used to prepare cDNA of both a viral target (the 3′UTR of DENV; Table 2) and a cellular reference gene (β-actin, Table 2). Subsequently, a duplex real time PCR was performed on a Lightcycler480 instrument. The generated Cp value is inversely proportional to the amount of RNA expression of these targets. Inhibition of DENV replication by a test compound results in a shift of Cp's for the 3′UTR gene. On the other hand, if a test compound is toxic to the cells, a similar effect on β-actin expression will be observed. The comparative ΔΔCp method is used to calculate EC50, which is based on the relative gene expression of the target gene (3′UTR) normalized with the cellular housekeeping gene (β-actin). In addition, CC50 values are determined based on the Cp values acquired for the housekeeping gene β-actin.
(§2) The culture medium consisted of minimal essential medium supplemented with 2% of heat-inactivated fetal calf serum, 0.04% gentamycin (50 mg/mL) and 2 mM of L-glutamine. Vero cells, obtained from ECACC, were suspended in culture medium and 75 μL/well was added in 96-well plates (10000 cells/well), which already contain the antiviral compounds. […] In addition, each plate contains wells which are assigned as virus controls (containing cells and virus in the absence of compound) and cell controls (containing cells in the absence of virus and compound). Once the cells were added in the plates, the plates were incubated in a fully humidified incubator (37° C., 5% CO2) until the next day. Dengue viruses serotype-1, -2, -3 and -4 were diluted in order to obtain a Cp of ˜22-24 in the assay. Therefore, 25 μL of virus suspension was added to all the wells containing test compound and to the wells assigned as virus control. In parallel, 25 μL of culture medium was added to the cell controls. Next, the plates were incubated for 3 days in a fully humidified incubator (37° C., 5% CO2). After 3 days, the supernatant was removed from the wells and the cells were washed twice with ice-cold PBS (˜100 μL). The cell pellets within the 96-well plates were stored at −80° C. for at least 1 day. Next, RNA was extracted using the Cells-to-CT^Tm lysis kit, according to the manufacturer's guideline (Life Technologies). The cell lysates can be stored at −80° C. or immediately used in the reverse transcription step.
(§3) In preparation of the reverse transcription step, mix A (table 3A) was prepared and 7.57 μL/well was dispensed in a 96-well plate. After addition of 5 μL of the cell lysates, a five minute denaturation step at 75° C. was performed (table 3B). Afterwards, 7.43 μL of mix B was added (table 3C) and the reverse transcription step was initiated (table 3D) to generate cDNA.
(§4) Finally, a RT-qPCR mix was prepared, mix C (table 4A), and 22.02 μL/well was dispensed in 96-well LightCycler qPCR plates to which 3 μL of cDNA was added and the qPCR was performed according to the conditions in table 4B on a LightCycler 480.
(§5) Using the LightCycler software and an in-house LIMS system, dose response curves for each compound were calculated and the half maximal effective concentration (EC50) and the half maximal cytotoxic concentration (CC50) were determined (Tables 5-8).
(In general: Real-time PCR tracks product formation cycle by cycle.)

Data set [2] deals with DENV-2 16681 strain. In words: DENV-2 antiviral assay (eGFP fluorescence). Format: cell-based, Dengue virus. The conditions noted are these: SI=CC50/EC50, DENV-2 antiviral assay. The method, then: The antiviral activity of all the compounds of the invention was tested against the DENV-2 16681 strain which was labeled with enhanced green fluorescent protein (eGPF). The culture medium consists of minimal essential medium supplemented with 2% of heat-inactivated fetal calf serum, 0.04% gentamycin (50 mg/mL) and 2 mM of L-glutamine. Vero cells, obtained from ECACC, were suspended in culture medium and 25 μL was added to 384-well plates (2500 cells/well), which already contain the antiviral compounds. Typically, these plates contain a 5-fold serial dilution of 9 dilution steps of the test compound at 200 times the final concentration in 100% DMSO (200 nL). […] Finally, each plate contains wells which are assigned as virus controls (containing cells and virus in the absence of compound), cell controls (containing cells in the absence of virus and compound) and medium controls (containing medium in the absence of cells, virus and compounds). To the wells assigned as medium control, 25 μL of culture medium was added instead of Vero cells. Once the cells were added to the plates, the plates were incubated for 30 minutes at room temperature to allow the cells to distribute evenly within the wells. Next, the plates were incubated in a fully humidified incubator (37° C., 5% CO2) until the next day. Then, DENV-2 strain 16681, labeled with eGFP, was added at a multiplicity of infection (MOI) of 0.5. Therefore, 15 μL of virus suspension was added to all the wells containing test compound and to the wells assigned as virus control. In parallel, 15 μL of culture medium was added to the medium and cell controls. Next, the plates were incubated for 3 days in a fully humidified incubator (37° C., 5% CO2). At the day of the read out, the eGFP fluorescence was measured using an automated fluorescence microscope at 488 nm (blue laser). Using an in-house LIMS system, inhibition dose response curves for each compound were calculated and the half maximal effective concentration (EC50) was determined. Therefore, the percent inhibition (I) for every test concentration is calculated using the following formula: I=100*(ST-SCC)/(SVC-SCC); ST, SCC and SVC are the amount of eGFP signal in the test compound, cell control and virus control wells, respectively. The EC50, represents the concentration of a compound at which the virus replication is inhibited with 50%, as measured by a 50% reduction of the eGFP fluorescent intensity compared to the virus control. The EC50 is calculated using linear interpolation (Table 1).

For data set [3], the system named is DENV-2 strain 16681. In words: Tetravalent RT-qPCR assay, serotype 2. The note with it: RT-qPCR serotype 2, Protocol A. Type of data set: cell-based, Dengue virus. The method, then:
as §1, §2, §3, §4, §5

Data set [4] deals with DENV-4 strain H241. Kind of data set: Tetravalent RT-qPCR assay, serotype 4. The note with it: RT-qPCR serotype 4, Protocol A. Format: cell-based, Dengue virus. The procedure: as §1, §2, §3, §4, §5
In data set [5] the test system is DENV-1 strain TC974#666. Kind of data set: Tetravalent RT-qPCR assay, serotype 1. Format: cell-based, Dengue virus. The conditions noted are these: RT-qPCR serotype 1, Protocol A. The method, then:
as §1, §2, §3, §4, §5

Data set [6] concerns DENV-2. The conditions noted are these: analogous DENV-2 antiviral assay, reported activity; cited from earlier work.

Molecules are shown by their SMILES.

Take `COc1cc(NC(C(=O)N2CCc3ccc(OC(F)(F)F)cc32)c2ccc(F)cc2)cc(OCCCC(=O)O)c1` (single isomer, unassigned) [Compound 2B]: the SI in data set [1] is more than 1200; in data set [2], 214720; in data set [3], 76100; in data set [4] it was 587; in data set [5], more than 19400.
For `COc1cc(NC(C(=O)N2CCc3cc(OC)c(C(F)(F)F)cc32)c2ccc(Cl)cc2F)cc(OCCCC(=O)O)c1` (single isomer, unassigned) [Compound 11B] the same measures were more than 604, 124345, more than 18300, 697 and more than 6970.
For `COc1cc(NC(C(=O)N2CCc3ccc(OC(F)(F)F)cc32)c2ccc(Cl)cc2OC)cc(OCCCC(=O)O)c1` (single isomer, unassigned) [Compound 8B], in that order: more than 2740, more than 62700, more than 43700, 334 and more than 30700.
For `COc1cc(NC(C(=O)N2CCc3ccc(C(F)(F)F)cc32)c2ccc(Cl)cc2)cc(OCCCC(=O)O)c1` (single isomer, unassigned) [Compound 3B] the same measures were more than 5170, 111100, 81700, 85 and more than 30300.
Regarding `COc1cc(NC(C(=O)N2CCc3cc(OC)c(C(F)(F)F)cc32)c2ccc(Cl)cc2)cc(OCCCC(=O)O)c1` (single isomer, unassigned) [Compound 5B], the SI was more than 1050 in data set [1]; 87500 in data set [2]; more than 16000 in data set [3]; 530 in data set [4]; more than 6700 in data set [5].
As to `COc1cc(NC(C(=O)N2CCc3ccc(OC(F)(F)F)cc32)c2ccc(Cl)cc2F)cc(OCCCC(=O)O)c1` (single isomer, unassigned) [Compound 10A], the SI is listed as more than 1290 in data set [1]; 79200 in data set [2]; more than 24400 in data set [3]; 2640 in data set [4]; more than 33300 in data set [5].
For the compound `CNC(=O)c1cccc(NC(C(=O)c2c[nH]c3ccccc23)c2ccccc2)c1` (centres unmarked) [(170) of WO-2013/045516], in data set [6], the SI was 58.
Turning to `COc1cccc(NC(C(=O)N2CCc3ccccc32)c2ccccc2)c1` (centres unmarked) [(56) of WO-2013/045516], the SI in data set [6] is more than 312.
On to `COc1cc(NC(C(=O)N2CCc3ccc(OC(F)(F)F)cc32)c2ccc(Cl)cc2)cc(OCCCC(=O)O)c1` (single isomer, unassigned) [Compound 4B], for which the SI in data set [1] is listed as more than 5610; in data set [2], 92400; in data set [3] it was more than 65500; in data set [4] it was 682; in data set [5], more than 85800.
For `COc1cc(NC(C(=O)N2CCc3cc(OC)c(OC(F)(F)F)cc32)c2ccc(Cl)cc2)cc(OCCCC(=O)O)c1` (single isomer, unassigned) [Compound 12B] the same measures were more than 1240, 34900, more than 12900, 348 and more than 6820.
For `COc1cc(NC(C(=O)N2CCc3ccc(C(F)(F)F)cc32)c2ccc(F)cc2)cc(OCCCC(=O)O)c1` (single isomer, unassigned) [Compound 1B] the same measures were more than 909, 26500, 38000, 173 and 34200.
For `COc1cc(NC(C(=O)N2CCc3ccc(C(F)(F)F)cc32)c2ccc(Cl)cc2OC)cc(OCCCC(=O)O)c1` (single isomer, unassigned) [Compound 6B] the same measures were more than 2170, more than 209126, more than 23800, more than 232 and more than 8420.
As to `COc1cc(NC(C(=O)N2CCc3ccc(C(F)(F)F)cc32)c2ccc(Cl)cc2F)cc(OCCCC(=O)O)c1` (single isomer, unassigned) [Compound 9B], the SI in data set [1] is more than 1360; in data set [2], 28400; in data set [3], more than 18200; in data set [4] it was 570; in data set [5], more than 24000.
As to `COc1cc(NC(C(=O)N2CCc3cc(OC)c(C(F)(F)F)cc32)c2ccc(Cl)cc2OC)cc(OCCCC(=O)O)c1` (single isomer, unassigned) [Compound 7B], the SI is given as more than 1080 in data set [1]; 101083 in data set [2]; more than 34500 in data set [3]; 531 in data set [4]; more than 6020 in data set [5].
